# Measurements from PubChem BioAssay AID720596 (The Scripps Research Institute Molecular Screening Center, 2013).
# The list shows a part of the results, in another mix than the full data. The source made the active and inactive calls. Cut-off read from the data, not from the text of the source: active = inhibition above about 24%; inactive = the rest.
# Molecular target: Major prion protein (Homo sapiens) (UniProt P04156)
# Experiment: inhibitors of human cell surface prion protein PrPC, primary screen, cell-based, TR-FRET (AID 720596); note: 0% = median of the test wells and 100% = reference compound wells
# Conditions: TR-FRET read-out, at 13.8 µM, active compounds read high
row,Compound,inhibition
1,[N-]=[N+]=NC1CCCCC1NC(=O)c1cc([N+](=O)[O-])cc([N+](=O)[O-])c1 (stereo not given),inactive: -58.4%
2,Cc1ccc(OP(=O)(Nc2ccc([N+](=O)[O-])cn2)Oc2ccc(C)cc2)cc1,inactive: -0.01%
3,Cc1ccc2nc3c(c(C)c2c1)CC(C(Cl)Cl)S3 (stereo not given),active: 30.1%
4,O=[As](O)(c1ccc(O)cc1)c1ccccc1O,inactive: 3.87%
5,C[As](=O)(O)c1cccc(C(=O)O)c1,inactive: -0.53%
6,O=[N+]([O-])c1ccc(-c2cc([N+](=O)[O-])c(O)c([N+](=O)[O-])c2)cc1,inactive: -7.15%
7,COc1cc(C(=O)NCC2(N3CCOCC3)CCCCC2)ccc1OCC(C)C,inactive: 3.01%
8,CC(C)NC(=O)NP(=O)(Oc1ccccc1)Oc1ccccc1,inactive: 8.67%
9,CCN(CC)C(=S)SC(NC=O)C(Cl)(Cl)Cl (stereo not given),inactive: -1.8%
10,O=C(OC1CN2CCC1CC2)c1cccc2[nH]cnc12 (stereo not given),inactive: -4.31%
11,ClCCSc1nnc(-c2cccnc2)o1,inactive: 2.86%
12,COC(=O)C1(C)COP(=O)(N2CCCCCC2)OC1 (stereo not given),inactive: -1.51%
13,CC(C)c1ccc(OP(=O)(Nc2ccccn2)Oc2ccccc2F)cc1 (stereo not given),inactive: -9.46%
14,O=P1(N(CCCl)CCCl)Nc2ccccc2N1,inactive: -8.02%
15,O=P1(N(CCCl)CCCl)OCCCN1CCCl (stereo not given),inactive: 4.42%
16,COc1ccc2nc(NP(=O)(c3ccccc3)c3ccccc3)sc2c1,inactive: 5.41%
17,COc1cc(I)ccc1[As](=O)(O)O,inactive: 10.9%
18,Cc1c2c(nc3ccccc13)SC(C(Cl)Cl)C2 (stereo not given),active: 39%
19,O=C(OC1CN2CCC1CC2)C12CC3CC(CC(C3)C1)C2 (stereo not given),inactive: 5%
20,Cc1cc(=O)[nH]c(N[N+](=O)[O-])n1,inactive: -4.15%
21,O=[N+]([O-])c1cc(Oc2ccc([N+](=O)[O-])cc2C(F)(F)F)cc([N+](=O)[O-])c1,inactive: -31.6%
22,COc1ccc(N/C(=N/P(=O)(N2CCOCC2)N2CCOCC2)N2CCOCC2)cc1,inactive: -0.22%
23,O=C(O)C(=O)c1ccc(N(CCCl)CCCl)cc1,inactive: 5.77%
24,O=C(COc1ccccc1)OC1CN2CCC1CC2 (stereo not given),inactive: -2.03%
25,O=C(Nc1ccncc1[N+](=O)[O-])c1ccc([N+](=O)[O-])cc1[N+](=O)[O-],inactive: -48.2%

row,Compound,inhibition
1,COP1(=S)c2c(C)nn(CCC#N)c2N=C(c2ccc(F)cc2)N1C (stereo not given),inactive: 0.1%
2,COC(=O)C1(C)COP(=O)(N2CCCC2)OC1 (stereo not given),inactive: 1.67%
3,CCC(C)N(CC(C)C)C(=S)SC(NC(C)=O)C(Cl)(Cl)Cl (stereo not given),inactive: -4.77%
4,O=C(OC1CN2CCC1CC2)c1cccc([N+](=O)[O-])c1 (stereo not given),inactive: -11.3%
5,CCOC(=O)c1ccc(NC(=O)C(C)(CCl)SC)cc1 (stereo not given),inactive: 6.09%
6,COP(=O)(OC)N1CC1c1ccccc1 (stereo not given),inactive: 4.45%
7,CCCCOc1ccc(C(=O)NCC2(N3CCCCC3)CCCCC2)cc1OC,inactive: 1.46%
8,Cc1cc(SC(NC(=O)c2ccccc2)C(Cl)(Cl)Cl)nc(C(C)C)n1 (stereo not given),inactive: 3.08%
9,CCOC(=O)Nc1ccc([As](=O)(O)O)c(O)c1,inactive: -2.69%
10,O=C(O)C(O)c1ccc(N(CCCl)CCCl)cc1 (stereo not given),inactive: 2.65%
11,CC1CCNP(=O)(N(CCCl)CCCl)O1 (stereo not given),inactive: 1.59%
12,O=P(Nc1ccccn1)(c1cccc2ccccc12)c1cccc2ccccc12,inactive: -0.24%
13,Cc1cc(SC(NC=O)C(Cl)(Cl)Cl)ncn1 (stereo not given),inactive: -6.01%
14,O=[N+]([O-])c1ccc(Nc2ccc(Oc3ccc([N+](=O)[O-])cc3[N+](=O)[O-])cc2)c([N+](=O)[O-])c1,inactive: -1.23%
15,CCOC(=O)Nc1cccc([As](=O)(O)O)c1,inactive: 2.13%
16,CN(C)C1(CNC(=O)c2ccc(S(C)(=O)=O)cc2)CCCCC1,inactive: 4.91%
17,O=C(/C=C/c1ccccc1)OC1CN2CCC1CC2 (stereo not given),inactive: 2.15%
18,CCCC1OP(=O)(Nc2ccccc2)OCC1CC (stereo not given),inactive: -4.61%
19,Cc1nn(-c2ccccc2)c2c1P(=O)(N1CCOCC1)N(C)C(c1ccccc1)=N2 (stereo not given),inactive: 2.91%
20,CC1CCC(C(C)C)C(OP(=O)(Nc2ccccn2)c2ccccc2)C1 (stereo not given),inactive: -4.16%
21,Cc1ccc(C(=O)OC2CN3CCC2CC3)cc1 (stereo not given),inactive: -1.45%
22,Nc1cccc([As](=O)(O)c2ccccc2)c1,inactive: 0.61%
23,Cc1ccc(OCC(=O)OC2CN3CCC2CC3)cc1 (stereo not given),inactive: -5.84%
24,O=[As](O)(c1cccs1)c1cccs1,inactive: -2.61%
25,O=P1(Nc2ccc(Br)cn2)COc2ccccc2OC1,inactive: 3.57%

row,Compound,inhibition
1,NS(=O)(=O)c1cccc(NC(=O)COC(=O)C(O)(c2ccccc2)c2ccccc2)c1,inactive: 6.82%
2,Cc1ccc(S(=O)(=O)N(CCCN)CCCc2c(C)nc(N)[nH]c2=O)cc1,inactive: -18.9%
3,O=P1(Nc2ncccn2)COc2ccccc2OC1,inactive: -4.53%
4,O=P1(N(CCCl)CCCl)NCCC(C(F)(F)F)O1 (stereo not given),inactive: -8.95%
5,Clc1n[nH]nc1-c1nn[nH][15n]1,inactive: -1.15%
6,CC(C)(C)C(=O)NC(Sc1ncccn1)C(Cl)(Cl)Cl (stereo not given),inactive: 8.28%
7,O=P1(Nc2ccccn2)COc2ccccc2OC1,inactive: 8.91%
8,CCC1=CC2Cc3nc4ccc(Cl)cc4c(N)c3C(C1)C2 (stereo not given),inactive: -3.91%
9,CCOP(=O)(NC(=NC(C)c1ccccc1)NC(C)c1ccccc1)OCC (stereo not given),inactive: 5.06%
10,CCOP(=O)(Nc1ccc(C)cn1)OCC,inactive: -6.68%
11,CN(CCCl)Cc1cc(Cl)c(NC2=NCCN2)c(Cl)c1,inactive: -5.5%
12,CC(C)/C=N\N=C(\N)N[N+](=O)[O-],inactive: -7.58%
13,CN(C(=O)Cc1ccc(Cl)c(Cl)c1)[C@@H]1CCCC[C@H]1N1CCCC1,inactive: -6.57%
14,CN(C(=O)Cc1ccc(Cl)c(Cl)c1)C1CCCC[C@@H]1N1CCCC1 (stereo not given in full),inactive: 5.12%
15,CC1(CBr)Cn2c(nc3ccccc3c2=O)S1 (stereo not given),inactive: 0.32%
16,COc1ccccc1CNC(=O)COC(=O)C(O)(c1ccccc1)c1ccccc1,inactive: 7.38%
17,Cc1cccc(OCC(=O)OC2CN3CCC2CC3)c1 (stereo not given),inactive: 3.88%
18,O=[As](O)(c1cccc(O)c1)c1cccc(O)c1,inactive: -2.28%
19,O=C(OC1CN2CCC1CC2)c1ccc(Cl)cc1 (stereo not given),inactive: -12.2%
20,O=[As](O)(O)c1cccnc1,inactive: 4.89%
21,COc1cc(C(=O)NCC2(N3CCOCC3)CCCCC2)cc(Cl)c1OC(C)C,inactive: -1.99%
22,CS(=O)(=O)c1ccc(Cl)c(NC(=O)COC(=O)C(O)(c2ccccc2)c2ccccc2)c1,inactive: 4.95%
23,COc1cc(C2NCCC3(OCCO3)C2(C)C)cc(OC)c1OC (stereo not given),inactive: -0.16%
24,CCOP(=O)(Nc1cccc2ccccc12)OCC,inactive: 1.9%
25,Cc1ccc(NCCc2c([N+](=O)[O-])cc([N+](=O)[O-])cc2[N+](=O)[O-])cc1,inactive: -32.4%

row,Compound,inhibition
1,Nc1cccc2c([As](=O)(O)O)cccc12,inactive: -19.7%
2,CCCOP(=S)(Nc1nc(N)cc(=O)[nH]1)OCCC,inactive: 12.3%
3,Nc1ccccc1[As](=O)(O)c1ccccc1,inactive: -3.49%
4,O=C(O)COc1ccc([As](=O)(O)O)cc1[N+](=O)[O-],inactive: 5.37%
5,CCOP1(=S)c2c(C)nn(CCC#N)c2N=C(c2ccccc2F)N1C (stereo not given),inactive: -1.6%
6,O=P(Nc1nccs1)(Oc1ccccc1)Oc1ccccc1,inactive: -0.64%
7,N#CCCN(C(=O)COC(=O)C(O)(c1ccccc1)c1ccccc1)c1ccc(F)cc1,inactive: -1.88%
8,CCOP1(=S)c2c(C)nn(CCC#N)c2N=C(c2ccc(F)cc2)N1C (stereo not given),inactive: -1.08%
9,CN(C(=O)Cc1ccccc1)[C@@H]1CC[C@]2(CCCO2)C[C@H]1N1CCCC1,inactive: -6.98%
10,O=[N+]([O-])c1ccc2c(c1)nnn2O,inactive: -19.5%
11,CN(C)C(=O)c1cc([N+](=O)[O-])cc2c1-c1c(cc([N+](=O)[O-])cc1[N+](=O)[O-])C2=O,inactive: -40%
12,CN(C(=O)Cc1ccc(Cl)c(Cl)c1)[C@H]1CC[C@@]2(CCCO2)C[C@@H]1N1CCCC1,inactive: -9.76%
13,NC(=O)Nc1ccc([As](=O)(O)O)cc1,inactive: 0.36%
14,O=P1(N(CCCl)CCCl)OCCC2CCCCN21 (stereo not given),inactive: 5.95%
15,c1ccc(-c2nn[nH]n2)c(-c2nn[nH]n2)c1,inactive: 7.23%
16,Cc1ccc(NP(=O)(Oc2cccc(C)c2)Oc2cccc(C)c2)nc1,inactive: -2.19%
17,CCNC(=S)/N=C(\N)N[N+](=O)[O-],inactive: -4.29%
18,O=C(NC1CCS(=O)(=O)C1)NP(=S)(Oc1ccccc1)Oc1ccccc1 (stereo not given),inactive: -5.08%
19,CC(NC(=O)COC(=O)C(O)(c1ccccc1)c1ccccc1)c1ccccc1 (stereo not given),inactive: 8.52%
20,Cc1ccccc1OP(=O)(Nc1ccccn1)Oc1ccccc1C,inactive: -0.21%
21,O=c1c2cc([N+](=O)[O-])ccc2[nH]c2c([N+](=O)[O-])cc([N+](=O)[O-])cc12,inactive: -15.4%
22,CN(C)C(=O)Oc1noc2ccccc12,inactive: 7.23%
23,O=C(OC1CN2CCC1CC2)c1ccccc1 (stereo not given),inactive: 1.29%
24,CCC(=O)N1C2C3N(C(=O)CC)C1C1N(C(=O)CC)C(C(N1C(=O)CC)N3C(=O)CC)N2C(=O)CC,inactive: 0.6%
25,COC(=O)c1cc2c(s1)N=C(c1ccccc1)N(C)P2(=O)N1CCOCC1 (stereo not given),inactive: -4.47%
